Assay results taken from paper PMC12069340 (Frontiers in Cellular and Infection Microbiology, 2025).

Assay: in vitro
Conditions: human, Relative Viability (%)

## CC[N+](CC)(CC)CCOc1cccc(OCC[N+](CC)(CC)CC)c1OCC[N+](CC)(CC)CC [Gallamine Triethiodide]
  viability at 20 µM: 103%
